Compound potency records, mixed from different reports. Data source: NIAID ChemDB in PubChem.

Common to all: whole-cell or culture tests; agent: Mycobacterium avium; measure: MIC

Conditions beyond the fields shown may differ between rows. An empty or dashed field is not shown.

SMILES | conditions | strain or isolate | result
CCn1c(S)c(N=NC(N)=[NH2+])c2ccccc21 | - | CNCTC MY80/72 | 250 µM
Cc1nc2scc(-c3ccco3)c2c(=O)n1/N=C/c1ccc(F)cc1 | - | CNCTC MY330/88 | 10 µM
Cc1ccc2nc(SCc3ccc([N+](=O)[O-])cc3)[nH]c2c1 | - | MY330/88 | 16 µM
Cc1nc2scc(-c3ccco3)c2c(=O)n1NC(=O)c1ccccc1 | - | CNCTC MY330/88 | 110 µM
CCCCCOc1ccc(NC(=O)OCC[NH+]2CCCC2)cc1 | - | MY330/88 | 62.5 µM
Oc1cc(Br)ccc1C(=S)NCc1ccc(Br)cc1 | - | MY330/88 | 8 µg/mL
NC(=S)CSc1cc(C(N)=S)ccn1 | - | 330/88 | 125 µM
Cc1ccc2nc(SCc3cccc([N+](=O)[O-])c3)[nH]c2c1 | - | MY330/88 | >62 µM
CCCCOc1cccc(NC(=O)OC(C)CN2CCCCC2)c1 | - | MY330/88 | 125 µM
N#Cc1ccnc(N2CCCCC2)c1 | - | 330/88 | 500 µM
Cc1ccc2oc(=O)n(-c3ccccc3)c(=S)c2c1 | 14 d | MY330/88 | 4 µM
Cc1nc2scc(-c3ccco3)c2c(=O)n1/N=C/c1ccccc1 | - | CNCTC MY330/88 | 50 µM
CCCCCCCOc1ccccc1NC(=O)OC(COCC)CN1CCCCC1 | - | MY330/88 | 250 µM
NNC(=O)c1ccncc1 | - | MY330/88 | >250 µg/mL
Cc1ccc2nc(SCc3ccc(F)c(F)c3)[nH]c2c1 | - | MY330/88 | 32 µM
O=C1C(=S)N(c2ccccc2)c2ccccc21 | - | CNCTC MY80/72 | 63 µM
CCCCOc1ccccc1NC(=O)OC(C)CN1CCCCC1 | - | MY330/88 | 250 µM
CCCCCCOc1ccc(NC(=O)OCCN2CCCCC2)cc1 | - | MY330/88 | 32 µM
Cc1ccc(/C=N/n2c(C)nc3scc(-c4ccco4)c3c2=O)cc1 | - | CNCTC MY330/88 | 56 µM
CCOc1cccc(NC(=O)OCCN2CCCCC2)c1 | - | MY330/88 | 500 µM
CO[C@H]1/C=C/O[C@@]2(C)Oc3c(C)c(O)c4c(O)c(cc(O)c4c3C2=O)NC(=O)/C(C)=C\C=C\[C@H](C)[C@H](O)[C@@H](C)[C@@H](O)[C@@H](C)[C@H](OC(C)=O)[C@@H]1C | - | Losanna 617 | 2 µg/mL
N#Cc1ccnc(SCC(O)CO)c1 | - | 330/88 | 250 µM
COc1ccc2oc(=O)n(-c3ccc(C(F)(F)F)cc3)c(=S)c2c1 | 21 d | MY330/88 | 125 µM
Cc1nc2scc(-c3ccco3)c2c(=O)n1/N=C/c1ccc(Cl)cc1Cl | - | CNCTC MY330/88 | 5 µM
NNC(=O)c1ccncc1 | - | 168-4 | 2.5 µg/mL
Cc1cccc(C(N)=Nc2nc(-c3ccccn3)cc3ccccc23)c1 | - | SK-18 | 1 µg/mL
Cc1ccc2nc(SCc3ccccc3)[nH]c2c1 | - | MY330/88 | >62 µM
CC(=O)Nn1c(C)nc2scc(-c3ccco3)c2c1=O | - | CNCTC MY330/88 | 86 µM
Cc1ccc2nc(SCc3cccc(C(N)=S)c3)[nH]c2c1 | - | MY330/88 | 125 µM
Cc1nc2scc(-c3ccco3)c2c(=O)n1/N=C/c1cccs1 | - | CNCTC MY330/88 | 52 µM
NC(=S)N=Nc1c(S)n(-c2ccccc2)c2ccccc12 | - | CNCTC MY66/72 | 16 µM
CCCCOc1ccccc1NC(=O)OC(COCC)CN1CCCCC1 | - | MY330/88 | 250 µM
N#CCCSc1cc(C#N)ccn1 | - | 330/88 | 1000 µM
COc1ccc2oc(=O)n(-c3ccc(Br)cc3)c(=S)c2c1 | 14 d | MY330/88 | 62.5 µM
Cc1nc2scc(-c3ccco3)c2c(=O)n1/N=C/c1ccc(Cl)cc1 | - | CNCTC MY330/88 | 12 µM
S=c1oc2ccc(Br)cc2c(=S)n1-c1cccc(Cl)c1 | 21 d | MY330/88 | 32 µM
Cc1ccc(O)c(C(=O)NCc2ccc(C(C)(C)C)cc2)c1 | - | MY330/88 | 16 µg/mL
Cc1ccc2nc(SCc3ccccc3[N+](=O)[O-])[nH]c2c1 | - | MY330/88 | 125 µM
Cc1ccc(O)c(C(=S)NCc2ccc(C(C)(C)C)cc2)c1 | - | MY330/88 | 1 µg/mL
O=C1C(=S)N(Cc2ccccc2)c2ccccc21 | - | CNCTC MY66/72 | 63 µM
Clc1ccc2c(c1)nc1cc(Nc3ccccc3)c(=NC3CCCCC3)cc-1n2-c1ccccc1 | - | 11882 | 1.3 µg/mL
CCCCCCCOc1ccccc1NC(=O)OCCN(C)C | - | MY330/88 | 8 µM
CCOC(=O)CSc1ccnc(C(N)=S)c1 | - | 330/88 | 250 µM
CCCCCCCCCOc1cccc(NC(=O)OCCN(C)C)c1 | - | MY330/88 | 8 µM
COc1ccc2oc(=S)n(-c3ccc(Cl)cc3)c(=S)c2c1 | 14 d | MY330/88 | 62.5 µM

Repeating the final 4 entries:

CCCCCCCOc1ccccc1NC(=O)OCCN(C)C ; strain or isolate: MY330/88 ; result: 8 µM
CCOC(=O)CSc1ccnc(C(N)=S)c1 ; strain or isolate: 330/88 ; result: 250 µM
CCCCCCCCCOc1cccc(NC(=O)OCCN(C)C)c1 ; strain or isolate: MY330/88 ; result: 8 µM
COc1ccc2oc(=S)n(-c3ccc(Cl)cc3)c(=S)c2c1 ; conditions: 14 d ; strain or isolate: MY330/88 ; result: 62.5 µM